5 compounds from patent publication US9988395B2, “Antiparasitic compositions and methods utilizing substituted 5,5,7,7-tetramethyl-4,5,6,7-tetrahydrothieno[2,3-C]pyridine derivatives” (THE BOARD OF REGENTS OF THE UNIVERSITY OF TEXAS SYSTEM, priority 2015, dated 2018) can be followed below.

Each structure is given as a SMILES string.

The data set concerns L. major Luciferase promastigotes. The experiment in a line: Antiparasitic activity in L. major Luciferase promastigotes. The following applies: TI versus macrophage LD50. It is filed as cell-based, Leishmania major. An excerpt:
IC50 is median inhibitory concentration. TI is therapeutic index.
As to `CCOC(=O)c1c(NC(=O)c2cccc(C(F)(F)F)c2F)sc2c1CC(C)(C)NC2(C)C` [GP1-04, Ethyl 2-(2-fluoro-3-(trifluoromethyl)benzamido)-5,5,7,7-tetramethyl-4,5,6,7-tetrahydrothieno[2,3-c]pyridine-3-carboxylate], the “L. major Promastigotes [TI] (therapeutic index)” value is 100.59.
With `CCOC(=O)c1c(NC(=O)c2ccc(F)c(C(F)(F)F)c2)sc2c1CC(C)(C)NC2(C)C` [GP1-05, Ethyl 2-(4-fluoro-3-(trifluoromethyl)benzamido)-5,5,7,7-tetramethyl-4,5,6,7-tetrahydrothieno[2,3-c]pyridine-3-carboxylate], the “L. major Promastigotes [TI] (therapeutic index)” value is reported as 28.20.
As to `CCOC(=O)c1c(NC(=O)c2ccc([N+](=O)[O-])s2)sc2c1CC(C)(C)NC2(C)C` [RS2, ethyl 5,5,7,7-tetramethyl-2-(5-nitrothiophene-2-carboxamido)-4,5,6,7-tetrahydrothieno[2,3-c]pyridine-3-carboxylate], the “L. major Promastigotes [TI] (therapeutic index)” value is 3.2.
Take `CCOC(=O)c1c(NC(=O)c2cccc(C(F)(F)F)c2)sc2c1CC(C)(C)NC2(C)C` [RS3, Ethyl 5,5,7,7-tetramethyl-2-(3-(trifluoromethyl)benzamido)-4,5,6,7-tetrahydro-thieno[2,3-c]pyridine-3-carboxylate]: the “L. major Promastigotes [TI] (therapeutic index)” value is 4.20.
Regarding `CCOC(=O)c1c(NC(=O)c2c(F)c(F)c(F)c(F)c2F)sc2c1CC(C)(C)NC2(C)C` [RS4, Ethyl 5,5,7,7-tetramethyl-2-(perfluorobenzamido)-4,5,6,7-tetrahydrothieno[2,3c]pyridine-3-carboxylate], the “L. major Promastigotes [TI] (therapeutic index)” value is 22.35.
